Data as given in PubChem BioAssay AID1259414 (Drosophila RNAi Screening Center, 2018)

Assay: 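Fly genes that alter Wolbachia amount inside host cells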 (primary screen)
Cells: Drosophila JW18 cells infected with Wolbachia
Reagents: long dsRNA against Drosophila genes, 0.25 µg dsRNA per well of a 384-well plate
Timing: 5 days
Challenge: cells persistently infected with Wolbachia before knock-down; no added drug
Measurement: 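Automated imaging of bacterial rRNA staining divided by host cell count, reported as plate-normalised robust z-score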
Direction: Wolbachia per cell robust z: higher = more Wolbachia per host cell than the plate typical
Active means: 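Active if absolute robust z reaches 1.5 in two or more of three replicates, leaving out multi- or no-target dsRNAs, genes unexpressed in JW18 and A1 wells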
In all, the deposit lists about 24,000 reagents; this is a random part of those with a known target gene and a result. Of all reagents, about 1,210 (5%) were called active. 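Inactive calls also include excluded dsRNAs with several or no targets, genes unexpressed in JW18, and well A1, regardless of score.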 A number with no mark means an inactive call. A plus sign joins genes that one reagent is predicted to hit.

| predicted target | dsRNA | Wolbachia per cell robust z, rep 1 | Wolbachia per cell robust z, rep 2 | Wolbachia per cell robust z, rep 3 |
| --- | --- | --- | --- | --- |
| Vm32E (Vitelline membrane 32E) | DRSC03474 | -1.16 | -0.876 | -4.61 |
| Vm32E (Vitelline membrane 32E) | DRSC25156 | -2.2 | -3.9 | -0.244 |
| IntS6 (Integrator 6) | DRSC18281 | 1.41 | -1.38 | 1.77 |
| IntS6 (Integrator 6) | DRSC30100 | 2.13 (active) | 4.72 | 2.3 |
| Con (Connectin) | DRSC08652 | -3.77 (active) | 0.592 | -5.32 |
| tsl (torso-like) | DRSC17090 | -0.283 | -3.98 | 0.378 |
| CG31391 | DRSC16047 | 0.0769 | -2.54 | -0.0196 |
| mrva (minerva) | DRSC11009 | -2.93 | 0.0131 | 0.0991 |
| mrva (minerva) | DRSC21842 | -0.425 | -0.477 | -0.245 |
| mrva (minerva) | DRSC25508 | 0.724 | -1.14 | 1.39 |
| kin17 | DRSC11890 | 0.0501 | 0.276 | 0.22 |
| kin17 | DRSC26821 | 0.0484 | 0.583 | -0.0457 |

2 of these entries, set out differently:
predicted target | dsRNA | Wolbachia per cell robust z, rep 1 | Wolbachia per cell robust z, rep 2 | Wolbachia per cell robust z, rep 3
Vm32E (Vitelline membrane 32E) | DRSC03474 | -1.16 | -0.876 | -4.61
Vm32E (Vitelline membrane 32E) | DRSC25156 | -2.2 | -3.9 | -0.244

The listing continues.
| predicted target | dsRNA | Wolbachia per cell robust z, rep 1 | Wolbachia per cell robust z, rep 2 | Wolbachia per cell robust z, rep 3 |
| --- | --- | --- | --- | --- |
| Dscam2 (Down syndrome cell adhesion molecule 2) | DRSC10198 | -1.06 | 0.0653 | 0.433 |
| Dscam2 (Down syndrome cell adhesion molecule 2) | DRSC11018 | -5.37 | 1.76 | 1.28 |
| Dscam2 (Down syndrome cell adhesion molecule 2) | DRSC11019 | -3.3 | 0.248 | 0.0325 |
| Dscam2 (Down syndrome cell adhesion molecule 2) | DRSC22526 | 0.358 | 1.07 | 0.475 |
| Dscam2 (Down syndrome cell adhesion molecule 2) | DRSC25787 | -1.21 | 0.0386 | -0.745 |
| Dscam2 (Down syndrome cell adhesion molecule 2) | DRSC28220 | 0.684 | 0.0221 | 0.191 |
| CG44004 + CG44005 | DRSC36535 | -0.408 | -1.96 | 0.248 |
| ppk6 (pickpocket 6) | DRSC06062 | 0.888 | -1.41 | 0.577 |
| ppk6 (pickpocket 6) | DRSC29267 | -0.641 | -0.826 | -0.94 |
| ppk6 (pickpocket 6) | DRSC39033 | -0.141 | -0.758 | -2.63 |
| alien | DRSC03482 | -1.52 (active) | 2.23 | 2.08 |
| Ent1 (Equilibrative nucleoside transporter 1) | DRSC00330 | 0.417 | 0.615 | -0.0518 |
| mRpS6 (mitochondrial ribosomal protein S6) | DRSC08470 | -3.1 | 0.205 | -1.41 |
| mRpS6 (mitochondrial ribosomal protein S6) | DRSC29280 | -0.955 | -1.68 | -1.02 |
| l(1)G0020 (lethal (1) G0020) | DRSC18198 | 0.31 | 0.0863 | -0.98 |
| CG11349 | DRSC08179 | -0.247 | 0.292 | -0.68 |
| CG11349 | DRSC27563 | -1.01 | 0.121 | -0.754 |
